Measured values from several laboratories, pooled; numbers as filed in NIAID ChemDB.

Common to all: growth or infection tests; species: Mycobacterium avium complex

ECn: concentration that inhibits the pathogen or its effect by n%. MIC50, MIC90 and the like: level of inhibition, or share of isolates inhibited. Blank or dashed fields: not listed here. Neighbouring rows are from separate reports. Inhibition is in % at the dose shown (toxicity tests: loss of growth or viability).

compound | strain | read by | endpoint | tested at | result
C[C@@H]1CN(c2c(F)c(N)c3c(=O)c(C(=O)O)cn(C4CC4)c3c2F)C[C@H](C)N1 | 27 | broth dilution | MIC | - | 1 µg/mL
CO[C@H]1/C=C/O[C@@]2(C)Oc3c(C)c(O)c4c(O)c(c5c(c4c3C2=O)NC2(CCN(CC(C)C)CC2)N=5)=NC(=O)/C(C)=C\C=C\[C@H](C)[C@H](O)[C@@H](C)[C@@H](O)[C@@H](C)[C@H](OC(C)=O)[C@@H]1C | 1854 | - | MBC | - | 32 µg/mL
CCn1cc(C(=O)O)c(=O)c2cc(F)c(N3CCC(CNCCO)C3)c(F)c21 | - | - | MIC50 | - | 16 µg/mL
O=C(O)c1cn(C2CC2)c2nc(-n3ccnc3)c(F)cc2c1=O | 14 strains | - | MIC50 | - | ≥32 µg/mL
NC[C@@H]1O[C@H](O[C@H]2[C@@H](O)[C@H](O[C@@H]3[C@@H](O)[C@H](N)C[C@H](N)[C@H]3O[C@H]3O[C@H](CO)[C@@H](O)[C@H](O)[C@H]3N)O[C@@H]2CO)[C@H](N)[C@@H](O)[C@@H]1O | 536/HIV+ | - | MIC | - | 1.56 µg/mL
NCC[C@H](O)C(=O)N[C@@H]1C[C@H](N)[C@@H](O[C@H]2O[C@H](CN)[C@@H](O)[C@H](O)[C@H]2O)[C@H](O)[C@H]1O[C@H]1O[C@H](CO)[C@@H](O)[C@H](N)[C@H]1O | TMC 1467 | - | MIC | - | 0.05 µg/mL
CCN(CC)CC1CCN(c2c(F)cc3c(=O)c(C(=O)O)cn(C4CC4)c3c2F)C1 | - | - | MIC50 | - | 2 µg/mL
NC[C@H]1O[C@H](O[C@H]2[C@H](O)[C@@H](O[C@H]3O[C@H](CO)[C@@H](O)[C@H](N)[C@H]3O)[C@H](N)C[C@@H]2N)[C@H](N)[C@@H](O)[C@@H]1O | TMC 1473 | - | MIC | - | 0.78 µg/mL
CO[C@H]1/C=C/O[C@@]2(C)Oc3c(C)c(O)c4c(O)c(c(/C=N/N5CCN(C/C=C/c6ccccc6)CC5)c(O)c4c3C2=O)NC(=O)/C(C)=C\C=C\[C@H](C)[C@H](O)[C@@H](C)[C@@H](O)[C@@H](C)[C@H](OC(C)=O)[C@@H]1C | 101 | - | MBC | - | 2 µg/mL
CC[C@@H](CO)NCCN[C@@H](CC)CO | 921-5 | - | MBC | - | 15 µg/mL
NC1CCN(c2c(F)cc3c(=O)c(C(=O)O)cn(C4CC4)c3c2F)C1 | - | - | MIC90 | - | 16 µg/mL
CC(C)CN1CCN(c2cc3c(cc2F)c(=O)c(C(=O)O)cn3C(C)(C)C)CC1 | 14 strains | - | MIC50 | - | 4 µg/mL
CN[C@@H]1[C@@H](O)[C@@H](O[C@@H]2[C@@H](O)[C@H](O[C@H]3O[C@H](CN)CC[C@H]3N)[C@@H](N)C[C@H]2N)OC[C@]1(C)O | TMC 1403 | - | MIC | - | 0.1 µg/mL
CC1CN(c2nc3c(cc2F)c(=O)c(C(=O)O)cn3C(C)(C)C)CCN1 | 14 strains | - | MIC90 | - | 2 µg/mL
NC[C@H]1O[C@H](O[C@H]2[C@H](O)[C@@H](O[C@H]3O[C@H](CO)[C@@H](O)[C@H](N)[C@H]3O)[C@H](N)C[C@@H]2N)[C@H](O)[C@@H](O)[C@@H]1O | Isolate C-49 | - | MIC | - | 400 µg/mL
CCCCN1CCN(c2cc3c(cc2F)c(=O)c(C(=O)O)cn3C2CC2)CC1 | 14 strains | - | MIC50 | - | 4 µg/mL
CO[C@H]1/C=C/O[C@@]2(C)Oc3c(C)c(O)c4c(O)c(c5c(c4c3C2=O)NC2(CCN(CC(C)C)CC2)N=5)=NC(=O)/C(C)=C\C=C\[C@H](C)[C@H](O)[C@@H](C)[C@@H](O)[C@@H](C)[C@H](OC(C)=O)[C@@H]1C | 50 isolates | - | MIC50 | - | 0.25 µg/mL
NCCC[C@H](N)CC(=O)N[C@H]1CNC(=O)[C@H]([C@H]2C[C@H](O)NC(N)=N2)NC(=O)/C(=C/NC(N)=O)NC(=O)[C@H](CO)NC(=O)[C@H](CO)NC1=O | TMC 1473 | - | MIC | - | 12.5 µg/mL
Nc1ccc(C(=O)O)c(O)c1 | 713 strains | agar | EC50 | - | >2 µg/mL
CC(C)N1CCN(c2nc3c(cc2F)c(=O)c(C(=O)O)cn3C2CC2)CC1 | 14 strains | - | MIC50 | - | 4 µg/mL
NC[C@H]1O[C@H](O[C@H]2[C@H](O)[C@@H](O[C@H]3O[C@H](CO)[C@@H](O)[C@H](N)[C@H]3O)[C@H](N)C[C@@H]2N)[C@H](O)[C@@H](O)[C@@H]1O | Isolate 93 | - | MIC | - | 25 µg/mL
CC(C)N=c1cc2n(-c3ccc(Cl)cc3)c3ccccc3nc-2cc1Nc1ccc(Cl)cc1 | 5718 | - | MIC | - | 4 µg/mL
CC(C)N1CCN(c2nc3c(cc2F)c(=O)c(C(=O)O)cn3C(C)(C)C)CC1 | 14 strains | - | MIC90 | - | 4 µg/mL
CNC1CCN(c2c(F)cc3c(=O)c(C(=O)O)cn(C4CC4)c3c2F)C1 | - | - | MIC90 | - | 8 µg/mL
NC[C@@H]1O[C@H](O[C@H]2[C@@H](O)[C@H](O[C@@H]3[C@@H](O)[C@H](N)C[C@H](N)[C@H]3O[C@H]3O[C@H](CO)[C@@H](O)[C@H](O)[C@H]3N)O[C@@H]2CO)[C@H](N)[C@@H](O)[C@@H]1O | TMC 1469 | - | MIC | - | 3.13 µg/mL
CC1CN(c2cc3c(cc2F)c(=O)c(C(=O)O)cn3C2CC2)CCN1 | 14 strains | - | MIC90 | - | 2 µg/mL
NCC1CCN(c2c(F)cc3c(=O)c(C(=O)O)cn(C4CC4)c3c2F)C1 | - | - | MIC90 | - | 8 µg/mL
CC1CN(c2c(F)cc3c(=O)c(C(=O)O)cn(C4CC4)c3c2Br)CC(C)N1 | 14 strains | - | MIC50 | - | 0.5 µg/mL
O=[N+]([O-])[O][Ga]([O][N+](=O)[O-])[O][N+](=O)[O-] | 1 | - | inhibition | 500 µM | 90%
CC[C@@H](CO)NCCN[C@@H](CC)CO | 211-5 | - | MBC | - | 15 µg/mL
CC1CN(c2cc3c(c(CO)c2F)c(=O)c(C(=O)O)cn3C2CC2)CCN1 | - | - | MIC50 | - | 16 µg/mL

2 of the rows above, restated:

{"compound": "NCC[C@H](O)C(=O)N[C@@H]1C[C@H](N)[C@@H](O[C@H]2O[C@H](CN)[C@@H](O)[C@H](O)[C@H]2O)[C@H](O)[C@H]1O[C@H]1O[C@H](CO)[C@@H](O)[C@H](N)[C@H]1O", "strain": "TMC 1467", "endpoint": "MIC", "result": "0.05 µg/mL"}
{"compound": "NCC1CCN(c2c(F)cc3c(=O)c(C(=O)O)cn(C4CC4)c3c2F)C1", "endpoint": "MIC90", "result": "8 µg/mL"}